Results: patent USRE37781E1, “Substituted cyclic carbonyls and derivatives thereof useful as retroviral protease inhibitors” (DuPont Pharmaceuticals Company, priority 1991, dated 2002)
Where two headings read alike, the source gives them in different places.

How the values were obtained:
[1] = target: single-chain tethered dimer of HIV protease (Human immunodeficiency virus 1, UniProt P04585)
[2] = read-out: HPLC K1, Table 2d, HIV protease inhibition, HPLC method
[3] = read-out: HPLC K1, Table 2d, class symbols

In the case of `C=C(CO)CN1C(=O)N(CC(=C)CO)[C@H](Cc2ccccc2)[C@H](O)[C@@H](O)[C@H]1Cc1ccccc1`, the Ki [1, 2] is reported as > 1 µM.

`Nc1nc(-c2cccc(CN3C(=O)N(Cc4cccc(-c5csc(N)n5)c4)[C@H](Cc4ccccc4)[C@H](O)[C@@H](O)[C@H]3Cc3ccccc3)c2)cs1` was tested, and the IC90 (HIV-1 (RF) in MT-2 cells; Table 2d, HIV RNA assay) was “+++ (+++=<10 μg/mL)” and the Ki [1, 2] was < 0.01 µM.

With `NC(=O)Nc1cccc(CN2C(=O)N(Cc3cccc(NC(N)=O)c3)[C@H](Cc3ccccc3)[C@H](O)[C@@H](O)[C@H]2Cc2ccccc2)c1` the IC90 (HIV-1 (RF) in MT-2 cells; Table 2d, class symbols) was “+++ (+++=<10 μg/mL)” and the Ki [1, 3] was < 0.01 µM.

In the case of `Nc1nc(-c2cccc(CN3[C@H](Cc4ccccc4)[C@H](O)[C@@H](O)[C@@H](Cc4ccccc4)N(Cc4cccc(-c5csc(N)n5)c4)S3(=O)=O)c2)cs1`, the IC90 (HIV-1 (RF) in MT-2 cells; Table 2m) is reported as “+++ (+++=<10 μg/mL)” and the Ki ([1]; read-out: HPLC Ki, Table 2m) is reported as < 0.01 µM.

For `O=C(NO)c1cccc(CN2C(=O)N(Cc3cccc(C(=O)NO)c3)[C@H](Cc3ccccc3)[C@H](O)[C@@H](O)[C@H]2Cc2ccccc2)c1`, the IC90 (HIV-1 (RF) in MT-2 cells; Table 2d, class symbols) was “+ (+=>100 μg/mL)” and the Ki [1, 3] was < 0.01 µM.

In the case of `O=C1N(Cc2ccoc2)[C@H](Cc2ccccc2)[C@H](O)[C@@H](O)[C@@H](Cc2ccccc2)N1Cc1coc(C=NO)c1`, the IC90 (HIV-1 (RF) in MT-2 cells; HIV RNA assay, HIV-1 infected MT-2 cells, Table 2d) is reported as “+++ (+++=<10 μg/mL)” and the Ki ([1]; read-out: HPLC K1, HIV protease inhibition, HPLC method, Table 2d) is reported as < 0.01 µM.

For `O=C1N(Cc2ccc3cnccc3c2)[C@H](Cc2ccccc2)[C@H](O)[C@@H](O)[C@@H](Cc2ccccc2)N1Cc1ccc2cnccc2c1`, the IC90 (HIV-1 (RF) in MT-2 cells; Table 2d, class symbols) was “+ (+=>100 μg/mL)” and the Ki [1, 3] was 0.01 to 1 µM.

With `O=S1(=O)N(CCCCCCO)[C@H](Cc2ccccc2)[C@H](O)[C@@H](O)[C@@H](Cc2ccccc2)N1CCCCCCO` the IC90 (HIV-1 (RF) in MT-2 cells; Table 2m) was “+++ (+++=<10 μg/mL)” and the Ki ([1]; read-out: HPLC Ki, Table 2m) was < 0.01 µM.

In the case of `O=C1N(Cc2ccc3ccccc3c2)C(Cc2ccccc2)CC(OCO)C(Cc2ccccc2)N1Cc1ccc2ccccc2c1` (centres unmarked), the Ki ([1]; read-out: HPLC Ki, Table 1d, lower part) is reported as < 0.01 µM.

With `Cc1ccc(S(=O)(=O)NCCCCCN2C(=O)N(CCCCCNS(=O)(=O)c3ccc(C)cc3)[C@H](Cc3ccccc3)[C@H](O)[C@@H](O)[C@H]2Cc2ccccc2)cc1` the IC90 (HIV-1 (RF) in MT-2 cells; Table 2d, HIV RNA assay) was “++/+ (The ++/+ is used in the cases where an IC90 was determined to be >50 μg/mL)” and the Ki [1, 2] was 0.01 to 1 µM.

For `CN(C)C=CC(=O)c1cccc(CN2C(=O)N(Cc3cccc(C(=O)C=CN(C)C)c3)[C@H](Cc3ccccc3)[C@H](O)[C@@H](O)[C@H]2Cc2ccccc2)c1`, the IC90 (HIV-1 (RF) in MT-2 cells; Table 2d, HIV RNA assay) was “+++ (+++=<10 μg/mL)” and the Ki [1, 2] was < 0.01 µM.

`CN(C)CC(=O)Nc1cccc(CN2[C@H](Cc3ccccc3)[C@H](O)[C@@H](O)[C@@H](Cc3ccccc3)N(Cc3cccc(NC(=O)CN(C)C)c3)S2(=O)=O)c1` was tested, and the IC90 (HIV-1 (RF) in MT-2 cells; Table 2m) was “+++ (+++=<10 μg/mL)” and the Ki ([1]; read-out: HPLC Ki, Table 2m) was < 0.01 µM.

For `Cc1nc(-c2cccc(CN3C(=O)N(Cc4cccc(-c5noc(C)n5)c4)[C@H](Cc4ccccc4)[C@H](O)[C@@H](O)[C@H]3Cc3ccccc3)c2)no1`, the IC90 (HIV-1 (RF) in MT-2 cells; Table 2i) was “+++ (+++=<10 μg/mL)” and the Ki ([1]; read-out: HPLC Ki, Table 2i) was < 0.01 µM.

With `O=C(NC12CC3CC(CC(C3)C1)C2)Oc1cccc(CN2C(=O)N(Cc3cccc(OC(=O)NC45CC6CC(CC(C6)C4)C5)c3)[C@H](Cc3ccccc3)[C@H](O)[C@@H](O)[C@H]2Cc2ccccc2)c1` the IC90 (HIV-1 (RF) in MT-2 cells; Table 2d, class symbols) was “+++ (+++=<10 μg/mL)” and the Ki [1, 3] was > 1 µM.

`O=C1N(Cc2ccccc2)[C@H](Cc2cn(Cc3ccccc3)c3ccccc23)[C@H](O)[C@@H](O)[C@@H](Cc2cn(Cc3ccccc3)c3ccccc23)N1Cc1ccccc1` was tested, and the Ki ([1]; read-out: K4 HPLC, Table 2e) was 0.01 to 1 µM.

Molecule `CN1C(=O)N(Cc2cccc(C(=O)NCCN3CCCC3)c2)[C@H](Cc2ccccc2)[C@H](O)[C@@H](O)[C@H]1Cc1ccccc1` has a Ki [1, 2] of 0.01 to 1 µM.

With `C[C@H](NC(=O)OCc1ccccc1)C(=O)Nc1cccc(CN2C(=O)N(Cc3cccc(NC(=O)[C@H](C)NC(=O)OCc4ccccc4)c3)[C@H](Cc3ccccc3)[C@H](O)[C@@H](O)[C@H]2Cc2ccccc2)c1` the Ki [1, 3] was < 0.01 µM.

In the case of `CNC(=O)OCCCCCCN1C(=O)N(CCCCCCO)[C@H](Cc2ccccc2)[C@H](O)[C@@H](O)[C@H]1Cc1ccccc1`, the Ki [1, 3] is reported as < 0.01 µM.

In the case of `O=C1N(CCC23CC4CC(CC(C4)C2)C3)[C@H](Cc2ccccc2)[C@H](O)[C@@H](O)[C@@H](Cc2ccccc2)N1CCC12CC3CC(CC(C3)C1)C2`, the Ki ([1]; HIV protease inhibition, class symbols) is reported as 0.01 to 1 µM.

With `O=C1N(Cc2ccccc2)[C@H](Cc2ccc(OCCN3CCOCC3)cc2)[C@H](O)[C@@H](O)[C@@H](Cc2ccc(OCCN3CCOCC3)cc2)N1Cc1ccccc1` the Ki ([1]; read-out: HPLC Ki, Table 2i) was < 0.01 µM.
